Results deposited as PubChem BioAssay AID624099 (ICCB-Longwood, 2012)
Screen: 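Knock-downs relieving repression by E2 of an HPV18 LCR luciferase reporter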 (primary screen). Cell system: human C33A cervical carcinoma cells (HPV-negative) stably expressing BPV1 E2 and an HPV18 LCR luciferase reporter. Knock-down reagent: siRNA pool against human genes, 40 nM. Time to read-out: 72 h. Detection: 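Per-well luciferase luminescence, z-scored on each plate against the plate mean and SD with control wells left out, then averaged across three replicate plates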. Scale: mean z-score and z-score: higher = stronger reporter signal, weaker E2 silencing. Hit rule: 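Mean z ≥ 2 together with z ≥ 2 in two or more of the three replicates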.
This is an unselected part of about 21,000 reagents. In the full data, 497 (2.4%) were called active. 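Higher z means weaker E2 silencing; only reporter increases were scored, and knock-downs that hurt cell survival may mask genuine repressor factors.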 The numbers tell different reagents against one gene apart. No sequences are given here.

MCIDAS — mean z-score: 0.43; z-score, replicate A: 0.48; z-score, replicate B: 0.41; z-score, replicate C: 0.39; Outcome: inactive
LOC388648 (retired record) — mean z-score: -1.58; z-score, replicate A: -1.69; z-score, replicate B: -1.08; z-score, replicate C: -1.98; Outcome: inactive
PAQR3 (progestin and adipoQ receptor family member 3) — mean z-score: -0.92; z-score, replicate A: -0.69; z-score, replicate B: -1.19; z-score, replicate C: -0.89; Outcome: inactive
SWT1 (SWT1 RNA endoribonuclease homolog) — mean z-score: -1.63; z-score, replicate A: -1.65; z-score, replicate B: -1.62; z-score, replicate C: -1.62; Outcome: inactive
UQCRB (ubiquinol-cytochrome c reductase binding protein) — mean z-score: 0.12; z-score, replicate A: 0.24; z-score, replicate B: -0.19; z-score, replicate C: 0.31; Outcome: inactive
LINC00575 (long independently transcribed non-coding RNA 575) — mean z-score: 1.97; z-score, replicate A: 1.79; z-score, replicate B: 2.15; z-score, replicate C: 1.98; Outcome: inactive
LOC401394 (retired record) — mean z-score: 0.1; z-score, replicate A: 0.15; z-score, replicate B: 0.06; z-score, replicate C: 0.08; Outcome: inactive
SMTN (smoothelin) — mean z-score: 0.37; z-score, replicate A: 0.35; z-score, replicate B: 0.59; z-score, replicate C: 0.18; Outcome: inactive

4 entries from above in another layout.
| Gene | reagent | mean z-score | z-score, replicate A | z-score, replicate B | z-score, replicate C | Outcome |
| --- | --- | --- | --- | --- | --- | --- |
| PAQR3 (progestin and adipoQ receptor family member 3) | 1 | -0.92 | -0.69 | -1.19 | -0.89 | inactive |
| SWT1 (SWT1 RNA endoribonuclease homolog) | 1 | -1.63 | -1.65 | -1.62 | -1.62 | inactive |
| UQCRB (ubiquinol-cytochrome c reductase binding protein) | 1 | 0.12 | 0.24 | -0.19 | 0.31 | inactive |
| LINC00575 (long independently transcribed non-coding RNA 575) | 1 | 1.97 | 1.79 | 2.15 | 1.98 | inactive |

Continued:
SNX6 (sorting nexin 6) — mean z-score: -2.01; z-score, replicate A: -2.26; z-score, replicate B: -2.4; z-score, replicate C: -1.37; Outcome: inactive
SRP54 (signal recognition particle 54) — mean z-score: 0.76; z-score, replicate A: 0.65; z-score, replicate B: 0.87; z-score, replicate C: 0.76; Outcome: inactive
EMG1 (EMG1 N1-specific pseudouridine methyltransferase) — mean z-score: 0.02; z-score, replicate A: 0; z-score, replicate B: 0.05; z-score, replicate C: -0.01; Outcome: inactive
RNF41 (ring finger protein 41) — mean z-score: -0.45; z-score, replicate A: -0.3; z-score, replicate B: -0.6; z-score, replicate C: -0.44; Outcome: inactive
LILRA3 (leukocyte immunoglobulin like receptor A3) — mean z-score: -1.43; z-score, replicate A: -1.23; z-score, replicate B: -1.52; z-score, replicate C: -1.54; Outcome: inactive
PATE1 (prostate and testis expressed 1) — mean z-score: 0.57; z-score, replicate A: 0.34; z-score, replicate B: 0.83; z-score, replicate C: 0.52; Outcome: inactive
EMB (embigin) — mean z-score: 1.68; z-score, replicate A: 1.64; z-score, replicate B: 1.54; z-score, replicate C: 1.87; Outcome: inactive
TMEM252 (transmembrane protein 252) — mean z-score: 0.54; z-score, replicate A: 1.28; z-score, replicate B: 0.46; z-score, replicate C: -0.12; Outcome: inactive
MIXL1 (Mix paired-like homeobox) — mean z-score: 1.48; z-score, replicate A: 1.43; z-score, replicate B: 1.43; z-score, replicate C: 1.57; Outcome: inactive
PRRT4 (proline rich transmembrane protein 4) #1 — mean z-score: 0.81; z-score, replicate A: 0.83; z-score, replicate B: 1.02; z-score, replicate C: 0.59; Outcome: inactive
PRRT4 (proline rich transmembrane protein 4) #2 — mean z-score: 0.65; z-score, replicate A: 0.65; z-score, replicate B: 0.58; z-score, replicate C: 0.71; Outcome: inactive
PCDH15 (protocadherin related 15) #1 — mean z-score: 0.77; z-score, replicate A: 0.81; z-score, replicate B: 0.45; z-score, replicate C: 1.05; Outcome: inactive
PCDH15 (protocadherin related 15) #2 — mean z-score: -0.02; z-score, replicate A: -0.04; z-score, replicate B: 0.09; z-score, replicate C: -0.09; Outcome: inactive
